Measured values from several laboratories, pooled; numbers as filed in NIAID ChemDB.

Common to all: whole-cell or culture tests; agent: HIV-1; cell line: MT-2; read-out: EC90

An empty or dashed field is not shown. ECn is the concentration giving n% inhibition of infection, replication or growth. a–b is a range or a potency band. Neighbouring rows are from separate reports.

{"compound": "CC(C)[C@H](NC(=O)Cc1ccccn1)C(=O)N[C@@H](Cc1ccccc1)[C@@H](O)[C@H](O)[C@H](Cc1ccccc1)NC(=O)[C@@H](NC(=O)Cc1ccccn1)C(C)C", "strain or isolate": "RF", "method": "plaque count / virus yield", "value": "1.3 µg/mL"}
{"compound": "CC(C)(C)NC(=O)[C@@H]1C[C@@H]2CCCC[C@@H]2N1C(=O)[C@@H](O)[C@H](Cc1ccccc1)NC(=O)[C@H](CC(N)=O)NC(=O)COc1cccc2ccccc12", "strain or isolate": "RF", "method": "p24", "value": "0.035–0.14 µM"}
{"compound": "CCCc1c([Se]c2ccccc2)n(COCC)c(=O)[nH]c1=O", "strain or isolate": "Cat #3 strain", "method": "p24", "value": ">1 µM"}
{"compound": "O=C1N(Cc2cccc(CO)c2)[C@@H](CCc2ccccc2)[C@H](O)[C@H](Cc2ccccc2)N1Cc1cccc(CO)c1", "strain or isolate": "RF", "value": ">5 µM"}
{"compound": "Nc1cccc(CN2C(=O)N(Cc3ccc4[nH]nc(-c5cccs5)c4c3)[C@H](Cc3ccccc3)[C@H](O)[C@@H](O)[C@H]2Cc2ccccc2)c1", "strain or isolate": "Ritonavir-resistant (PR M46I L63P A71V V82F I84V)", "mutations": "PR-M46I L63P A71V V82F I84V", "value": ">5 µM"}
{"compound": "COCCNC(=O)[C@@H](NC(=O)[C@H](Cc1ccc(OC)c(OC)c1OC)C[C@H](O)[C@H](Cc1ccccc1)NC(=O)OC(C)(C)C)C(C)C", "strain or isolate": "MN", "method": "RT activity", "value": "0.029 µM"}
{"compound": "CC(C)C[C@@H]1[C@H](O)[C@@H](O)[C@@H](CC(C)C)N(CC2CC2)C(=O)N1CC1CC1", "strain or isolate": "RF", "method": "hybridisation", "value": ">10 µM"}
{"compound": "O=C1N(Cc2cccc(-c3nn[nH]n3)c2)[C@H](Cc2ccccc2)[C@H](O)[C@@H](O)[C@@H](Cc2ccccc2)N1Cc1cccc(-c2nn[nH]n2)c1", "strain or isolate": "RF", "value": "70 µM"}
{"compound": "CCCCCN1C(=O)N(Cc2ccc3[nH]nc(N)c3c2)[C@H](Cc2ccccc2)[C@H](O)[C@@H](O)[C@H]1Cc1ccccc1", "strain or isolate": "RF", "value": "0.203 µM"}
{"compound": "CC(C)=CCOc1cc(NC(=S)c2ccoc2C)ccc1Cl", "strain or isolate": "IIIB", "method": "p24", "value": "0.02716 µg/mL"}
{"compound": "Cc1cn([C@H]2C[C@H](N=[N+]=[N-])[C@@H](CO)O2)c(=O)[nH]c1=O", "strain or isolate": "RF", "value": "0.015–0.38 µg/mL"}
{"compound": "CC(=O)N[C@H](C(=O)N[C@@H](Cc1ccccc1)[C@@H](O)CN(CC(C)C)NC(=O)[C@@H](NC(C)=O)C(C)C)C(C)C", "strain or isolate": "LAV", "method": "RT activity", "value": ">1 µM"}
{"compound": "O=C1N[C@H](Cc2ccccc2)[C@H](O)CN(Cc2ccccc2)[C@H]1Cc1ccccc1", "strain or isolate": "IIIB", "method": "XTT", "value": "≤10 µg/mL"}
{"compound": "O=C(Nc1nc2ccccc2[nH]1)c1cccc(CN2C(=O)N(Cc3cccc(C(=O)Nc4nc5ccccc5[nH]4)c3)[C@H](C3CCCCC3)[C@H](O)[C@@H](O)[C@H]2C2CCCCC2)c1", "strain or isolate": "RF", "setting": "3 d", "value": "0.014 µM"}
{"compound": "Cc1ccccc1C(=S)Nc1ccc(Cl)c(C(=O)OC2CCCCC2)c1", "strain or isolate": "LAV", "method": "RT activity", "value": ">10 µM"}
{"compound": "CC(O)c1cccc(CN2C(=O)N(Cc3cccc(C(C)O)c3)[C@H]3CS[C@@H](CCCCCO)[C@H]32)c1", "strain or isolate": "RF", "value": "98 µM"}
{"compound": "CC(C)CN(C[C@@H](O)[C@H](Cc1ccccc1)NC(=O)[C@H](CC(N)=O)NC(=O)c1ccc2ccccc2n1)C(=O)NC(C)(C)C", "strain or isolate": "MN", "method": "RT activity", "value": "0.273 µM"}
{"compound": "Nc1nc2c(ncn2[C@H]2CO[C@@H](CO)O2)c(=O)[nH]1", "value": "1.5 µM"}
{"compound": "CSCC[C@@H]1[C@H](O)[C@@H](O)[C@@H](CCSC)N(Cc2ccccc2)C(=O)N1Cc1ccccc1", "strain or isolate": "RF", "method": "hybridisation", "value": ">10 µM"}
{"compound": "CC[C@H](C)[C@H](NC(=O)Cc1ccccn1)C(=O)N[C@@H](Cc1ccccc1)[C@@H](O)[C@H](O)[C@H](Cc1ccccc1)NC(=O)[C@@H](NC(=O)Cc1ccccn1)[C@@H](C)CC", "strain or isolate": "RF", "method": "plaque count / virus yield", "value": "1 µg/mL"}
{"compound": "CC(C)CN(C[C@@H](O)[C@H](Cc1ccccc1)NC(=O)[C@@H](NC(=O)CNCc1cccc(F)c1)C(C)(C)C)S(=O)(=O)c1ccc(N)cc1", "strain or isolate": "IIIB", "method": "virus yield", "value": "0.0088 µM"}
{"compound": "CC(C)(C)NC(=O)[C@@H]1C[C@@H]2CCCC[C@@H]2CN1C[C@@H](O)[C@H](Cc1ccccc1)NC(=O)[C@H](CC(N)=O)NC(=O)c1ccc2ccccc2n1", "strain or isolate": "RF", "method": "plaque count / virus yield", "value": "0.004 µg/mL"}
{"compound": "Nc1n[nH]c2ccc(CN3C(=O)N(Cc4ccc5ccccc5c4)[C@H](Cc4ccccc4)[C@H](O)[C@@H](O)[C@H]3Cc3ccccc3)cc12", "strain or isolate": "RF", "mutations": "PR-S184V", "value": "0.43 µM"}
{"compound": "COc1cc(C[C@@H]2[C@H](O)[C@@H](O)[C@@H](Cc3cc(OC)cc(OC)c3)N(Cc3ccccc3)C(=O)N2Cc2ccccc2)cc(OC)c1", "strain or isolate": "RF", "value": ">5 µM"}
{"compound": "CC(C)C[C@@H]1[C@H](O)[C@@H](O)[C@@H](CC(C)C)N(Cc2ccc(CO)cc2)C(=O)N1Cc1ccc(CO)cc1", "strain or isolate": "RF", "method": "hybridisation", "value": ">10 µM"}
{"compound": "CCCCN1[C@H](Cc2ccccc2)[C@H](O)[C@@H]2O[P@]1(=O)N(CCCC)[C@@H]2Cc1ccccc1", "strain or isolate": "RF", "value": ">109.5 µM"}
{"compound": "O=C(Nc1nc2ccccc2[nH]1)c1cccc(CN2C(=O)N(Cc3cccc(C(=O)Nc4nc5ccccc5[nH]4)c3)[C@H](Cc3ccc(OCc4ccccc4)cc3)[C@H](O)[C@@H](O)[C@H]2Cc2ccc(OCc3ccccc3)cc2)c1", "strain or isolate": "RF", "setting": "3 d", "value": "0.125 µM"}
{"compound": "CC(C)CN(C[C@@H](O)[C@H](Cc1ccccc1)NC(=O)[C@@H](NC(=O)CNCc1cccc(F)c1)C(C)(C)C)S(=O)(=O)c1cccc(N)c1", "strain or isolate": "RF", "value": "0.0039 µM"}
{"compound": "O=[P@]12O[C@@H]([C@@H](O)[C@@H](Cc3ccccc3)N1CC1CC1)[C@@H](Cc1ccccc1)N2CC1CC1", "strain or isolate": "RF", "value": "110.5 µM"}
{"compound": "O=C1N(Cc2cccnc2)[C@H](Cc2ccccc2)[C@H](O)[C@@H](O)[C@@H](Cc2ccccc2)N1Cc1cccc(-c2ccn[nH]2)c1", "strain or isolate": "RF", "value": "0.094 µM"}
{"compound": "CC(C)(C)NC(=O)[C@@H]1C[C@@H]2CCCC[C@@H]2N1C(=O)[C@@H](O)[C@H](Cc1ccccc1)NC(=O)[C@H](CC(N)=O)NC(=O)COc1ccc2cc(Br)ccc2c1", "strain or isolate": "RF", "method": "p24", "value": "0.14 µM"}
{"compound": "CC(C)[C@H](NC(=O)OCc1ccccc1)C(=O)N[C@@H](Cc1ccccc1)[C@@H](O)[C@H](O)[C@H](Cc1ccccc1)NC(=O)[C@@H](NC(=O)OCc1ccccc1)C(C)C", "strain or isolate": "RF", "method": "plaque count / virus yield", "value": "0.09 µg/mL"}
{"compound": "O=C1N(Cc2ccc(CO)cc2)[C@H](CC2CCCCC2)[C@H](O)[C@@H](O)[C@@H](CC2CCCCC2)N1Cc1ccc(CO)cc1", "strain or isolate": "RF", "method": "hybridisation", "value": ">10 µM"}
{"compound": "CC(C)NC(=O)[C@@H]1C[C@@H]2CCCC[C@@H]2N1C(=O)[C@@H](O)[C@H](Cc1ccccc1)NC(=O)[C@@H](NC(=O)COc1cccc2ccccc12)C(C)C", "strain or isolate": "RF", "method": "p24", "value": "0.035–0.16 µM"}
{"compound": "COc1ccc(C[C@@H]2[C@H](O)[C@@H](O)[C@@H](Cc3ccc(OC)cc3)N(Cc3cccc(C(=O)Nc4nc5ccccc5[nH]4)c3)C(=O)N2Cc2cccc(C(=O)Nc3nc4ccccc4[nH]3)c2)cc1", "strain or isolate": "RF", "setting": "3 d", "value": "0.019 µM"}
{"compound": "Nc1nc(N)c2ncn([C@H]3CO[C@@H](CO)O3)c2n1", "value": "29 µM"}
{"compound": "NC(=O)c1cccc(CN2C(=O)N(Cc3cccc(C(N)=O)c3)[C@H](Cc3ccccc3)[C@H](O)[C@H]2CCc2ccccc2)c1", "strain or isolate": "RF", "value": "0.035 µM"}
{"compound": "O=[P@]12OC([C@@H](O)[C@@H](Cc3ccccc3)N1Cc1ccc(O)cc1)[C@@H](Cc1ccccc1)N2Cc1ccc(O)cc1", "strain or isolate": "RF", "value": "1.258 µM"}
{"compound": "CC(C)[C@H](NC(=O)c1ccc2ccccc2n1)C(=O)N[C@@H](Cc1ccccc1)[C@H](O)C(=O)N1[C@H](C(=O)NC(C)(C)C)C[C@@H]2CCCC[C@@H]21", "strain or isolate": "RF", "method": "p24", "value": "0.53 µM"}
{"compound": "O=C1N(Cc2ccc(CO)cc2)[C@H](Cc2ccccc2)[C@H](O)[C@@H](O)[C@@H](Cc2ccccc2)N1Cc1ccc(CO)cc1", "strain or isolate": "RF", "method": "p24 / ELISA", "value": "0.05 µM"}
{"compound": "Cc1ccnc2c1NC(=O)c1cccnc1N2C1CC1", "strain or isolate": "MN", "method": "p24", "value": "1 µM"}
{"compound": "CCCCCC[C@@H]1[C@H](O)[C@@H](O)[C@@H](CCCCCC)N(Cc2cccc(C(=O)Nc3nc4ccccc4[nH]3)c2)C(=O)N1Cc1cccc(C(=O)Nc2nc3ccccc3[nH]2)c1", "strain or isolate": "RF", "setting": "3 d", "value": "0.086 µM"}
{"compound": "Cc1cn([C@H]2C[C@H](N=[N+]=[N-])[C@@H](CO)O2)c(=O)[nH]c1=O", "strain or isolate": "MN", "method": "p24", "value": "0.1 µM"}
{"compound": "COC(=O)CCCC[C@H]1[C@@H]2[C@H](CS1(=O)=O)N(Cc1cccc(Br)c1)C(=O)N2Cc1cccc(Br)c1", "strain or isolate": "RF", "value": "80 µM"}
{"compound": "O=C1N(Cc2cccc(OCc3ccccc3)c2)[C@H](Cc2ccccc2)[C@H](O)[C@@H](O)[C@@H](Cc2ccccc2)N1Cc1cccc(OCc2ccccc2)c1", "strain or isolate": "RF", "method": "hybridisation", "value": ">70 µM"}
{"compound": "O=C1N(Cc2ccc(CO)cc2)[C@H](Cc2ccccc2)[C@H](O)[C@@H](O)[C@@H](Cc2ccccc2)N1Cc1ccc(CO)cc1", "strain or isolate": "Clinical isolate E", "method": "plaque count / virus yield", "value": "0.07 µg/mL"}
{"compound": "CC(C)(C)NC(=O)[C@@H]1[C@@H]2CCCC[C@@H]2CN1C(=O)[C@@H](O)[C@H](Cc1ccccc1)NC(=O)[C@H](CC(N)=O)NC(=O)c1ccc2ccccc2c1", "strain or isolate": "RF", "method": "p24", "value": "0.153 µM"}

For reference, 6 entries again:

compound	strain or isolate	mutations	method	setting	value
CC(C)[C@H](NC(=O)c1ccc2ccccc2n1)C(=O)N[C@@H](Cc1ccccc1)[C@H](O)C(=O)N1[C@H](C(=O)NC(C)(C)C)C[C@@H]2CCCC[C@@H]21	RF	-	p24	-	0.53 µM
O=C1N(Cc2cccc(CO)c2)[C@@H](CCc2ccccc2)[C@H](O)[C@H](Cc2ccccc2)N1Cc1cccc(CO)c1	RF	-	-	-	>5 µM
COC(=O)CCCC[C@H]1[C@@H]2[C@H](CS1(=O)=O)N(Cc1cccc(Br)c1)C(=O)N2Cc1cccc(Br)c1	RF	-	-	-	80 µM
Cc1cn([C@H]2C[C@H](N=[N+]=[N-])[C@@H](CO)O2)c(=O)[nH]c1=O	MN	-	p24	-	0.1 µM
CC[C@H](C)[C@H](NC(=O)Cc1ccccn1)C(=O)N[C@@H](Cc1ccccc1)[C@@H](O)[C@H](O)[C@H](Cc1ccccc1)NC(=O)[C@@H](NC(=O)Cc1ccccn1)[C@@H](C)CC	RF	-	plaque count / virus yield	-	1 µg/mL
CC(C)=CCOc1cc(NC(=S)c2ccoc2C)ccc1Cl	IIIB	-	p24	-	0.02716 µg/mL